Anti-infective test results gathered from many reports (values: NIAID ChemDB through PubChem).

Shared fields: whole-cell or culture tests; organism: Staphylococcus aureus; measure: MIC

Lines come from different laboratories, so protocols vary.

smiles	strain	result
O=C(NC[C@H]1CN(c2ccc3c(c2)-n2cccc2COC3)C(=O)O1)C1CC1	ATCC 49951 (SMITH)	8 µg/mL
CC[C@H]1OC(=O)[C@H](C)C(=O)[C@H](C)[C@@H](O[C@@H]2O[C@H](C)C[C@H](N(C)C)[C@H]2O)[C@@]2(C)C[C@@H](C)C(=NC(C)=O)[C@H](C)[C@@H](OC/C(=N/OCc3ccc(-c4cccc(N)n4)s3)CO2)[C@]1(C)O	29213 (erythromycin A-susceptible)	0.5 µg/mL
CC1CN(c2cc3c(cc2F)c(=O)c(C(=O)O)cn3C2CC2)CC(C)N1	ATCC 6538P	1.56 µg/mL
O=C(CO)N[C@H]1CCN(c2ccc(N3C[C@H](COc4ccon4)OC3=O)cc2F)C1	122 (novobiocin-resistant)	4 µg/mL
CCCCCCCCCCCC[N+](C)(C)CSCCCCCCCC	ATCC33592	12.1 µM
CNc1c(F)cc2c(=O)c(C(=O)O)cn(-c3cc(N)c(F)cc3F)c2c1C	MR8736 (methicillin-resistant)	1 µg/mL
N=Cc1cn(-c2ccc(N3C[C@H](COc4ccon4)OC3=O)cc2F)cn1	078 (oxford)	0.5 µg/mL
O=C(NC[C@H]1CN(c2ccc3c(c2)-n2cccc2COC3)C(=O)O1)c1ccccc1	ATCC 29213 (MSSA)	>32 µg/mL
CCCCCCCCCCCC[N+](C)(C)COC(C)CCC	ATCC33592	7.14 µM
CC[C@H]1OC(=O)[C@@](C)(F)C(=O)[C@H](C)[C@@H](O[C@@H]2O[C@H](C)C[C@H](N(C)C)[C@H]2O)[C@@]2(C)C[C@@H](C)C(=NC(C)=O)[C@H](C)[C@@H](OC/C(=N\OCc3ccc(-n4cccn4)nc3)CO2)[C@]1(C)O	27660 (erythromycin A -resistant)	0.13 µg/mL
CC(C)C(=S)NC[C@H]1CN(c2ccc3c(c2)-n2cccc2COC3)C(=O)O1	ATCC 29213 (MSSA)	4 µg/mL
CC[C@H]1OC(=O)[C@H](C)C(=O)[C@H](C)[C@@H](O[C@@H]2O[C@H](C)C[C@H](N(C)C)[C@H]2O)[C@@]2(C)C[C@@H](C)C(=NC(C)=O)[C@H](C)C(OC/C(=N\OCc3ccccc3)CO2)[C@]1(C)O	33591 (erythromycin methicillin-resistant)	>64 µg/mL
CC[C@H]1OC(=O)[C@@](C)(F)C(=O)[C@H](C)[C@@H](O[C@@H]2O[C@H](C)C[C@H](N(C)C)[C@H]2O)[C@@]2(C)C[C@@H](C)C(=NC(C)=O)[C@H](C)[C@@H](OC/C(=N\OCc3ccc(-c4cccc(N)n4)s3)CO2)[C@]1(C)O	27660 (erythromycin A -resistant)	0.13 µg/mL
O=C(CBr)NC[C@H]1CN(c2ccc3c(c2)-n2cccc2COC3)C(=O)O1	ATCC 29213 (MSSA)	4 µg/mL
CC[C@H]1OC(=O)[C@H](C)C(=O)[C@H](C)[C@@H](O[C@@H]2O[C@H](C)C[C@H](N(C)C)[C@H]2O)[C@@]2(C)C[C@@H](C)C(=NC(C)=O)[C@H](C)[C@@H](OC/C(=N\Oc3ccc(-c4nnc(N)s4)cc3)CO2)[C@]1(C)O	27660 (erythromycin-resistant)	0.13 µg/mL
Cc1cn(-c2ccc(N3C[C@H](CSC4C=NN=N4)OC3=O)cc2F)cn1	078 (oxford)	4 µg/mL
CCCCCCCCCOC[N+](C)(C)CCCCCCCC	ATCC 6538	2.86 µM
CC[C@H]1OC(=O)[C@@](C)(F)C(=O)[C@H](C)[C@@H](O[C@@H]2O[C@H](C)C[C@H](N(C)C)[C@H]2O)[C@@]2(C)C[C@@H](C)C(=NC(C)=O)[C@H](C)[C@@H](OC/C(=N\OCc3ccc(-c4ncccn4)s3)CO2)[C@]1(C)O	33591 (erythromycin methicillin-resistant)	16 µg/mL
N#Cc1ccc(N2CCN(c3ccc(N4C[C@H](COc5ccccn5)OC4=O)cc3F)CC2)nc1	122 (novobiocin-resistant)	2 µg/mL
CC[C@H]1OC(=O)[C@H](C)C(=O)[C@H](C)[C@@H](O[C@@H]2O[C@H](C)C[C@H](N(C)C)[C@H]2O)[C@@]2(C)C[C@@H](C)C(=NC(C)=O)[C@H](C)[C@@H](OC/C(=N\Oc3ccc(-c4cnccn4)s3)CO2)[C@]1(C)O	25923 (erythromycin-susceptible)	0.25 µg/mL
CO/N=C1\CN(c2nc3c(cc2F)c(=O)c(C(=O)O)cn3C2CC2)CC1CN	KU2245	2 µg/mL
C[C@@H](CO)Nc1cc2c(cc1F)c(=O)c(C(=O)O)cn2C1CC1	ATCC 6538P	6.25 µg/mL
O=C1O[C@@H](COc2ccon2)CN1c1ccc(N2CCC(O)CC2)c(F)c1	122 (novobiocin-resistant)	8 µg/mL
CC[C@H]1OC(=O)[C@H](C)C(=O)[C@H](C)[C@@H](O[C@@H]2O[C@H](C)C[C@H](N(C)C)[C@H]2O)[C@@]2(C)C[C@@H](C)C(=NC(C)=O)[C@H](C)[C@@H](OC/C(=N\OCC#Cc3cncnc3)CO2)[C@]1(C)O	33591 (erythromycin methicillin-resistant)	>64 µg/mL
CC[C@H]1OC(=O)[C@@](C)(F)C(=O)[C@H](C)[C@@H](O[C@@H]2O[C@H](C)C[C@H](N(C)C)[C@H]2O)[C@@]2(C)C[C@@H](C)C(=NC(C)=O)[C@H](C)[C@@H](OC/C(=N\OCc3ccc4nc(N)sc4c3)CO2)[C@]1(C)O	27660 (erythromycin A -resistant)	0.13 µg/mL
CCCCC(=S)NC[C@H]1CN(c2ccc3c(c2)-n2cccc2COC3)C(=O)O1	ATCC 29213 (MSSA)	16 µg/mL
NCCNc1cc2c(cc1F)c(=O)c(C(=O)O)cn2-c1ccc(F)cc1F	ATCC 6538P	0.78 µg/mL
CC[C@H]1OC(=O)[C@H](C)C(=O)[C@H](C)[C@@H](O[C@@H]2O[C@H](C)C[C@H](N(C)C)[C@H]2O)[C@@]2(C)C[C@@H](C)C(=NC(C)=O)[C@H](C)[C@@H](OC/C(=N\Oc3ccc(-c4nccs4)nc3)CO2)[C@]1(C)O	33591 (erythromycin methicillin-resistant)	64 µg/mL
Cc1c(NCCO)c(F)cc2c(=O)c(C(=O)O)cn(-c3cc(N)c(F)cc3F)c12	SMITH	0.008 µg/mL
NCCCNc1cc2c(cc1F)c(=O)c(C(=O)O)cn2C1CC1	ATCC 6538P	>100 µg/mL
CC[C@H]1OC(=O)[C@@](C)(F)C(=O)[C@H](C)[C@@H](O[C@@H]2O[C@H](C)C[C@H](N(C)C)[C@H]2O)[C@@]2(C)C[C@@H](C)C(=O)[C@H](C)[C@@H](OC/C(=N\OCc3ccc(-n4cccn4)nc3)CO2)[C@]1(C)O	29213 (erythromycin A-susceptible)	0.13 µg/mL
CCCCCCCCCCCC[N+](C)(C)CSCCCCC	ATCC33592	13.7 µM
CC[C@H]1OC(=O)[C@@](C)(F)C(=O)[C@H](C)[C@@H](O[C@@H]2O[C@H](C)C[C@H](N(C)C)[C@H]2O)[C@@]2(C)C[C@@H](C)C(=NC(C)=O)[C@H](C)[C@@H](OC/C(=N\OCC#Cc3cccc(N)n3)CO2)[C@]1(C)O	27660 (erythromycin A -resistant)	<0.06 µg/mL
CNCCCCCCN(C)c1cc2c(cc1F)c(=O)c(C(=O)O)cn2C1CC1	ATCC 5278 (methicillin-resistant)	6.25 µg/mL
CCCCCCCCCCOC[N+](C)(C)CCCCCCCC	ATCC33592	13.7 µM
O=C(O)c1cn(C2CC2)c2cc(NCCCCO)c(F)cc2c1=O	ATCC 5278 (methicillin-resistant)	>100 µg/mL
Cc1c(NC2CC2)c(F)cc2c(=O)c(C(=O)O)cn(-c3cc(N)c(F)cc3F)c12	W806 (methicillin-resistant)	0.25 µg/mL

The last 4 rows once more:

smiles	strain	result
CNCCCCCCN(C)c1cc2c(cc1F)c(=O)c(C(=O)O)cn2C1CC1	ATCC 5278 (methicillin-resistant)	6.25 µg/mL
CCCCCCCCCCOC[N+](C)(C)CCCCCCCC	ATCC33592	13.7 µM
O=C(O)c1cn(C2CC2)c2cc(NCCCCO)c(F)cc2c1=O	ATCC 5278 (methicillin-resistant)	>100 µg/mL
Cc1c(NC2CC2)c(F)cc2c(=O)c(C(=O)O)cn(-c3cc(N)c(F)cc3F)c12	W806 (methicillin-resistant)	0.25 µg/mL